The entries are a selection whose mix differs from that of the whole data set. Inconclusive results are not listed. Activity calls are given as the source filed them. Calls follow the shape of the full dose curve; tested in A549 cells.
test: qHTS for Stage-Specific Inhibitors of Vaccinia Orthopoxvirus: mCherry Reporter Primary qHTS; conditions: Vaccinia virus mCherry reporter infection, fluorescence; also: nearly all actives have a fitted effect of over 35% in size
Potency is read from the fitted curve at half-maximal effect.

Structure (SMILES) | Potency
CC(=O)OCC12CC(OC(=O)CC(C)C)C(C)=CC1OC1C(O)C(OC(C)=O)C2(C)C12CO2 (stereo unspecified) | active: 5.62 µM
CC1=CC2OC3CC4OC(=O)/C=C/C=CC(C(C)O)OCC(O)C(C)CC(=O)OCC2(CC1O)C4(C)C31CO1 (stereo unspecified) | active: 35.5 µM
CC(O)C1C=CC=CC(=O)OC2CC3OC4C5OC5(C)C(O)CC4(COC(=O)C(O)C(C)CCO1)C2(C)C31CO1 (stereo unspecified) | active: 0.316 µM
C[C@H]1[C@@H](OS(=O)(=O)O)C[C@@H]2C[C@H]([C@@H](O)c3cc(=O)[nH]c(=O)[nH]3)NC3=NC[C@H]1N32 | active: 1.58 µM
CC1=CC2OC3CC4OC(=O)C=CC=CC(C(C)O)OCC(O)C5(C)OC5C(=O)OCC2(CC1O)C4(C)C31CO1 (stereo unspecified) | active: 4.47 µM
CC1=CC2OC3CC4OC(=O)C=CC=CC(=O)OCCC(C)C(O)C(=O)OCC2(CC1)C4(C)C31CO1 (stereo unspecified) | active: 0.282 µM

From PubChem BioAssay AID720579 (National Center for Advancing Translational Sciences (NCATS), 2013)
